Experimental data: PubChem BioAssay AID504761 (Drosophila RNAi Screening Center, 2011)
Test: 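Fly genes whose silencing reduces dengue virus type 2 infection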 (primary screen). System: D.Mel-2 cells from Drosophila. Reagent: long dsRNA against Drosophila genes. Treatment: infection with dengue virus type 2; dose and infection time not stated. Detection: 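Cells stained for dengue envelope protein and imaged; percent of infected cells per well on duplicate plates, ranked by infection, with stained nuclei counted for cell number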. Reading the numbers: infection score: higher = more virus-infected cells; cell count: higher = more cells in the well. Active means: 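Very low infection ranking in both replicate wells (chance probability at most 0.065), then a retest showing infection dropped 1.5-fold or more at p below 0.05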. Calls: active = confirmed: knock-down lowers infection; inactive = not picked or not confirmed.
The deposit covers about 22,000 reagents; shown is an unselected part of those that have a named target and a result. Of all reagents, 116 (0.52%) are marked active. 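Calls depend on retest data that are not deposited; infection was ranked per plate without normalising between plates; the unit of the infection score is not given.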 The raw values are shown without normalisation. Unmarked entries are inactive. A plus sign joins genes that one reagent is predicted to hit. Not all columns of the deposit are shown. Not given: the amount of reagent, the time to read-out.

With knock-down of CG30383 [DRSC05062], the screen gave infection score, replicate 1 = 2.16; cell count, replicate 1 = 6218.
With knock-down of Pig1 [DRSC24991] the results were infection score, replicate 1 = 15.7; cell count, replicate 1 = 6508.
After knock-down of CG14932 [DRSC02414], the record shows infection score, replicate 1 = 5.06; cell count, replicate 1 = 6720.
With knock-down of CG14932 [DRSC26333], the record shows infection score, replicate 1 = 2.86; cell count, replicate 1 = 6775.
Knock-down of Ir60a [DRSC04212] came out at: infection score, replicate 1 = 2.7; cell count, replicate 1 = 6666.
CG2063 [DRSC06811] scored infection score, replicate 1 = 34.6; cell count, replicate 1 = 3154.
Knock-down of pre-mod(mdg4)-Z + mod(mdg4) + pre-mod(mdg4)-T [DRSC13477] came out at: infection score, replicate 1 = 0.12; cell count, replicate 1 = 6528.
With knock-down of pre-mod(mdg4)-Z + mod(mdg4) + pre-mod(mdg4)-T [DRSC17001], the screen gave infection score, replicate 1 = 1.72; cell count, replicate 1 = 6094.
After knock-down of Gpo3 [DRSC01978], the record shows infection score, replicate 1 = 24.1; cell count, replicate 1 = 4680.

Part of the list above in another layout.
CG30383 [DRSC05062]
- infection score, replicate 1: 2.16
- cell count, replicate 1: 6218

Pig1 [DRSC24991]
- infection score, replicate 1: 15.7
- cell count, replicate 1: 6508

The listing continues.
S6kII [DRSC20645] scored infection score, replicate 1 = 5.61; cell count, replicate 1 = 6575.
For CG5265 [DRSC15756] the deposit lists infection score, replicate 1 = 5.43; cell count, replicate 1 = 7058.
For CG15549 [DRSC15087] the deposit lists infection score, replicate 1 = 2.12; cell count, replicate 1 = 6133.
Knock-down of CG18622 [DRSC15360] resulted in: infection score, replicate 1 = 2.41; cell count, replicate 1 = 6422.
For CG11127 [DRSC06043], the values are infection score, replicate 1 = 2.29; cell count, replicate 1 = 6993.
Silencing of Prosbeta6 [DRSC11256] gave: infection score, replicate 1 = 0.28; cell count, replicate 1 = 726.
After knock-down of CG31436 [DRSC14661] the results were infection score, replicate 1 = 2.67; cell count, replicate 1 = 6181.
Against CG31436 [DRSC24566] the deposit lists infection score, replicate 1 = 6.45; cell count, replicate 1 = 5723.
Depletion of ppk28 [DRSC19919] came out at: infection score, replicate 1 = 3.83; cell count, replicate 1 = 6274.
dl [DRSC03521] scored infection score, replicate 1 = 3.56; cell count, replicate 1 = 6681.
dl [DRSC29023] scored infection score, replicate 1 = 0.23; cell count, replicate 1 = 437.
Depletion of Raf [DRSC18821] came out at: infection score, replicate 1 = 3.35; cell count, replicate 1 = 6300.
Raf [DRSC23311] gave infection score, replicate 1 = 2.5; cell count, replicate 1 = 6207.
